PubChem BioAssay AID624099 – ICCB-Longwood | 2012
In all, the deposit lists about 21,000 reagents; below is a random part of them. 497 of all reagents (2.4%) count as active. 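Higher z means weaker E2 silencing; only reporter increases were scored, and knock-downs that hurt cell survival may mask genuine repressor factors.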 Entries without a mark were called inactive. The numbers tell different reagents against one gene apart.

Assay: 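Human genes that papillomavirus E2 requires to repress the HPV18 LCR promoter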 (primary screen)
Cells: human C33A cervical carcinoma cells (HPV-negative) stably expressing BPV1 E2 and an HPV18 LCR luciferase reporter
Knock-down reagent: siRNA pool against human genes, 40 nM
Timing: 72 h
Detection: 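Per-well luciferase luminescence, z-scored on each plate against the plate mean and SD with control wells left out, then averaged across three replicate plates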
Reading the numbers: mean z-score and z-score: higher = stronger reporter signal, weaker E2 silencing
Active means: 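Mean z ≥ 2 together with z ≥ 2 in two or more of the three replicates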

gene | reagent no. | mean z-score | z-score, replicate A | z-score, replicate B | z-score, replicate C
MARK2P10 | 1 | -0.68 | -0.75 | -0.7 | -0.58
MARK2P10 | 2 | -1.26 | -1.52 | -1.04 | -1.23
GPATCH3 | 1 | 0.04 | 0.21 | -0.2 | 0.1
LINC00907 | 1 | -0.02 | 0.18 | -0.08 | -0.16
CAVIN1 | 1 | -0.46 | -0.44 | -0.52 | -0.43
TMEM108 | 1 | -0.98 | -1.19 | -0.98 | -0.78
GNG3 | 1 | 1.54 | 1.1 | 1.59 | 1.94
TFAP2C | 1 | -0.52 | -0.39 | -0.36 | -0.81
PRH1 | 1 | 0.18 | 0.39 | 0.26 | -0.12
RPL22P11 | 1 | -1.83 | -1.51 | -1.69 | -2.28
GMEB2 | 1 | -0.05 | -0.09 | -0.13 | 0.08
FAM181A | 1 | 0.89 | 1.16 | 0.59 | 0.93
SEC24D | 1 | -0.31 | 0.06 | -0.67 | -0.32
TAS1R2 | 1 | -1.43 | -1.48 | -1.81 | -1.01
MYLK4 | 1 | 0.98 | 0.81 | 1.18 | 0.96
CRIPAK (retired record) | 1 | -0.43 | -0.28 | -0.46 | -0.56
HES2 | 1 | 0.66 | 0.49 | 0.72 | 0.76
PLEC | 1 | 0.71 | 0.48 | 0.83 | 0.83
NT5C1A | 1 | -0.06 | -0.3 | 0.12 | 0
CACHD1 | 1 | 1.06 | 1.49 | 0.98 | 0.69
TSFM | 1 | 0.5 | 0.44 | 0.31 | 0.75
ST14 | 1 | -2.17 | -2.12 | -2.42 | -1.98
CCDC9 | 1 | -1.44 | -1.64 | -1.18 | -1.51
CDH10 | 1 | 0.01 | -0.02 | 0.05 | -0.01
LRRC49 | 1 | -1.19 | -1.38 | -1.22 | -0.96
GGACT | 1 | -1.32 | -0.75 | -1.66 | -1.56
ENTPD7 | 1 | 1.84 | 2.08 | 1.7 | 1.73
CTXN1 | 1 | 0.06 | 0.13 | -0.05 | 0.11
RGPD5 | 1 | 0.02 | -0.33 | 0.04 | 0.34
GABRR2 | 1 | -0.5 | -0.33 | -0.65 | -0.52
CBX5 | 1 | 0.41 | 0.51 | 0.48 | 0.23
DENND4C | 1 | -0.44 | -0.33 | -0.55 | -0.45
MAGI1-IT1 | 1 | 0.6 | 1.04 | 0.48 | 0.29
AHSG | 1 | -0.05 | 0.38 | -0.09 | -0.44
STEAP4 | 1 | 0.27 | 0.11 | 0.52 | 0.17
JMJD4 | 1 | -2.05 | -1.97 | -2.21 | -1.96
PPP4R3A | 1 | -0.37 | -0.38 | -0.3 | -0.43
TLX1 | 1 | 0.69 | 0.49 | 0.88 | 0.7
SRD5A3 | 1 | 0.57 | 0.55 | 0.63 | 0.52
CIMAP1D | 1 | -0.03 | 0.11 | -0.1 | -0.11
MRGPRX4 | 1 | -0.2 | -0.31 | -0.22 | -0.07
GPR3 | 1 | -0.17 | -0.13 | -0.14 | -0.23
LRPAP1 | 1 | -0.33 | -0.57 | -0.12 | -0.29
AICDA | 1 | 0.65 | 0.36 | 0.77 | 0.82
YIPF5 | 1 | 1.38 | 1.74 | 1.24 | 1.16
DMBT1 | 1 | 1.5 | 1.48 | 1.43 | 1.59
GSTA5 | 1 | -0.48 | -0.47 | -0.33 | -0.64
LOC388593 (retired record) | 1 | -0.47 | -0.35 | -0.6 | -0.45
FCHSD2 | 1 | 0.08 | -0.05 | 0.2 | 0.09
TGOLN2 | 1 | -0.8 | -0.81 | -0.63 | -0.96
IGF2 | 1 | 0.23 | 0.12 | 0.32 | 0.24
ZNF449 | 1 | -0.61 | -0.71 | -0.57 | -0.55
KIAA0040 | 1 | 0.41 | 0.49 | 0.51 | 0.23
ENHO | 1 | 0.86 | 0.9 | 1.02 | 0.66
CXCL1 | 1 | -0.08 | 0.03 | -0.09 | -0.2
VDAC1 | 1 | -0.2 | -0.33 | -0.09 | -0.17
PGAP2 | 1 | -0.03 | 0.13 | -0.22 | -0.02
LOC286359 | 1 | -0.26 | -0.09 | -0.18 | -0.5
DMD | 1 | 0.76 | 0.98 | 0.64 | 0.64
LOC389212 (retired record) | 1 | 0.3 | 0.57 | 0.05 | 0.28
CDK6 | 1 | 1.05 | 0.87 | 1.46 | 0.83
LDLR | 1 | 1.12 | 1.06 | 1.08 | 1.24
FURIN | 1 | -0.07 | -0.32 | 0.16 | -0.04
SLC16A9 | 1 | 0.12 | 0.21 | 0.2 | -0.05
INTS7 | 1 | 3.97 (active) | 3.98 | 3.74 | 4.19
SLC2A5 | 1 | 0.83 | 0.84 | 0.92 | 0.73
DCUN1D1 | 1 | 0.06 | -0.32 | 0.28 | 0.22
FUS | 1 | 1.46 | 1.6 | 1.39 | 1.39
NME2 | 1 | -0.28 | -0.49 | -0.36 | 0.01
ZNF223 | 1 | 0.82 | 0.77 | 0.78 | 0.92
CSNK2A1 | 1 | 1.31 | 1.63 | 1.18 | 1.11
STK32A | 1 | 0.48 | 0.79 | 0.48 | 0.16
ITPRIP | 1 | 0.21 | 0.41 | 0.01 | 0.23

Reagents listed so far with an active call:
gene | reagent no. | mean z-score | z-score, replicate A | z-score, replicate B | z-score, replicate C
INTS7 | 1 | 3.97 (active) | 3.98 | 3.74 | 4.19
